Measured values from several laboratories, pooled; numbers as filed in NIAID ChemDB.

Shared fields: whole-cell or culture tests; organism: Mycobacterium fortuitum; read-out: MIC

Two numbers with a dash give a range or band. Neighbouring rows are from separate reports. An empty or dashed field is not shown.

structure,strain or isolate,method,conditions,result
CCOC(=O)/C(N=Nc1ccc(-c2n[nH]c(=S)o2)cc1)=C(\C)O,ATCC 6841,,,64 µg/mL
CCCNc1nc(C(N)=S)cnc1C(N)=O,1021,,,>100 µg/mL
N/C(=N\N=C\c1ccccc1OCc1ccccc1)c1ccccn1,NCTC 10394,,,25–50 µg/mL
CN(C)c1ccc(/C=N/N=C(\N)c2ccccn2)c2ccccc12,NCTC 10394,,,8–16 µg/mL
N/C(=N/N=C/c1cccc(F)c1)c1ccccn1,,,,256 µg/mL
CCn1cc(C(=O)O)c(=O)c2ccc(-c3csc(N4CCCCC4)n3)cc21,,,,3.12 µg/mL
N/C(=N/N=C/c1cccc(Br)c1)c1ccccn1,,,,256 µg/mL
CCn1cc(C(=O)O)c(=O)c2ccc(-c3cscn3)cc21,,,,6.25 µg/mL
FC(F)(F)c1cc(-c2ccccc2)nc(N2N=C(/C=C/c3ccc(Cl)cc3)CC2c2ccc(Cl)cc2)n1,,resazurin,,>20.6 µM
Clc1ccc2c(c1)nc1cc(Nc3ccccc3)c(=NC3CCCCC3)cc-1n2-c1ccccc1,9738,,,5 µg/mL
C/C=C/Nc1nc(C(N)=S)cnc1C(N)=O,1021,,,>100 µg/mL
C[C@@H]1CN(c2c(F)c(N)c3c(=O)c(C(=O)O)cn(C4CC4)c3c2F)C[C@H](C)N1,NCTC 10394,,,0.25 µg/mL
CC1(C)CC[C@]2(C(=O)O)CC[C@]3(C)C(CC[C@@H]4[C@@]5(C)C[C@H](O)CC(C)(C)[C@@H]5CC[C@]43C)[C@@H]2C1,,resazurin,,100 µg/mL
CCCCNc1nc(C(N)=S)cnc1C(N)=O,1021,,,>100 µg/mL
NC[C@H]1O[C@H](O[C@H]2[C@H](O)[C@@H](O[C@H]3O[C@H](CO)[C@@H](O)[C@H](N)[C@H]3O)[C@H](N)C[C@@H]2N)[C@H](O)[C@@H](O)[C@@H]1O,ATCC 6841,,,64 µg/mL
CO[C@@]1(NC(=O)C2SC(=C(C(N)=O)C(=O)[O-])S2)C(=O)N2C(C(=O)[O-])=C(CSc3nnnn3C)CS[C@@H]21,1260,,,25 µg/mL
NC(=O)c1ncc(C(N)=S)nc1NC1CCCCCC1,1021,,,>100 µg/mL
CO[C@@]1(NC(=O)C(C(=O)O)c2ccc(O)cc2)C(=O)N2C(C(=O)O)=C(CSc3nnnn3C)CO[C@@H]21,4-May,,,50 µg/mL
CSc1nc(N)c2c(n1)NC(c1ccc(Cl)cc1)CC(c1ccc3c(c1)OCO3)=N2,MNT1073,MTT / broth dilution / absorbance,clinical isolate,>32 µg/mL
CCOC(=O)/C(N=Nc1ccc(-c2n[nH]c(=S)n2-c2ccccc2)cc1)=C(\C)O,ATCC 6841,,,64 µg/mL
N#Cc1ccc(/C=N/N=C(\N)c2ccccn2)cc1,,,,256 µg/mL
CN[C@@H]1[C@H](O[C@H]2[C@H](O[C@H]3[C@H](O)[C@@H](O)[C@H](N=C(N)N)[C@@H](O)[C@@H]3N=C(N)N)O[C@@H](C)[C@]2(O)C=O)O[C@@H](CO)[C@H](O)[C@H]1O,ATCC 6841,,,>64 µg/mL
C[C@@H]1CN(c2c(F)c(N)c3c(=O)c(C(=O)O)cn(C4CC4)c3c2F)C[C@H](C)N1,ATCC 6841,broth dilution / visual reading,,0.3 µg/mL
NC(=O)c1ncc(C(N)=S)nc1Nc1ccccc1,1021,,,100 µg/mL
CCn1cc(C(=O)O)c(=O)c2ccc(-c3csc(C)n3)cc21,,,,3.12 µg/mL
N#Cc1cnc(C(N)=O)c(NC2CCCCCC2)n1,1021,,,>100 µg/mL
COc1cccc(/C=N/N=C(\N)c2ccccn2)c1OC,,,,256 µg/mL
COc1ccc(/C=N/N=C(\N)c2ccccn2)c2ccccc12,NCTC 10394,,,16–32 µg/mL
N/C(=N\N=C\c1cccc2ccccc12)c1ccccn1,NCTC 10394,,,12.5–25 µg/mL
CCn1cc(C(=O)O)c(=O)c2cc(F)c(-c3csc(N4CCCCC4)n3)cc21,,,,3.12 µg/mL
CO[C@@]1(NC(=O)Cc2ccccc2)C(=O)N2C(C(=O)O)=C(COC(C)=O)CSC21,1049,,,50 µg/mL
C[C@@H]([C@H](NC(=O)[C@H](Cc1ccc2ccccc2c1)NC(=O)N[C@@H](Cc1c[nH]c2ccccc12)C(=O)NCC(C)(C)C)C(=O)NC[C@H]1C[C@@H](O)[C@H](n2ccc(=O)[nH]c2=O)O1)N(C)C(=O)CN,rA17,resazurin / fluorescence,,0.8 µM
COc1cccc(/C=N/N=C(\N)c2ccccn2)c1OCc1ccccc1,NCTC 10394,,,16–32 µg/mL
NC[C@H]1O[C@H](O[C@H]2[C@H](O)[C@@H](O[C@H]3O[C@H](CO)[C@@H](O)[C@H](N)[C@H]3O)[C@H](N)C[C@@H]2N)[C@H](N)C[C@@H]1O,ATCC 6841,,,16 µg/mL
NNC(=O)c1ccncc1,MNT1073,MTT / broth dilution / absorbance,clinical isolate,>0.5 µg/mL
CO[C@@]1(NC(=O)CCCC(N)C(=O)O)C(=O)N2C(C(=O)O)=C(COC(C)=O)CSC21,AO5,,,>100 µg/mL
CCn1cc(C(=O)O)c(=O)c2ccc(-c3csc(SC)n3)cc21,,,,6.25 µg/mL
N/C(=N\N=C\c1ccccc1Sc1ccc(Cl)cc1)c1ccccn1,NCTC 10394,,,12.5–25 µg/mL
C[C@@H](O)[C@H]1C(=O)N2C(C(=O)O)=C(SCCN=CN)C[C@H]12,4-May,,,3.12 µg/mL
N/C(=N\N=C\c1ccc(-c2ccccc2)cc1)c1cnccn1,NCTC 10394,,,>64 µg/mL
C[C@@H]([C@H](NC(=O)[C@H](CC1CCCCC1)NC(=O)N[C@@H](Cc1c[nH]c2ccccc12)C(=O)NCC(C)(C)C)C(=O)NC[C@H]1C[C@@H](O)[C@H](n2ccc(=O)[nH]c2=O)O1)N(C)C(=O)CN,PN,resazurin / fluorescence,,0.704 µM
Nc1nc(N)c2c(n1)NC(c1ccc3c(c1)OCO3)CC(c1ccc(F)cc1)=N2,MNT1073,MTT / broth dilution / absorbance,clinical isolate,>32 µg/mL
CCOC(=O)/C(N=Nc1ccc(-c2n[nH]c(=S)n2CC)cc1)=C(\C)O,ATCC 6841,,,64 µg/mL